The values below come from paper PMC6114103, “17-DMAG inhibits the multiplication of several Babesia species and Theileria equi on in vitro cultures, and Babesia microti in mice” (International Journal for Parasitology: Drugs and Drug …, 2018).

Test in all cases: in vitro multiplication inhibition assay (SYBR Green I fluorescence, 96 h), single drugs and two-drug combinations
For one series, the system named is T. equi (USDA strain). The series is classed as cell-based, Theileria equi. As for the experimental part: (§1) Babesia parasite cultures were maintained using a microaerophilic stationary-phase culture system ([Levy and Ristic, 1980]; [Avarzed et al., 1997]; [Igarashi et al., 1998]). Briefly, bovine Babesia parasites were grown in bovine red blood cells (RBC) in the specific complete medium for each species. The medium for B. bovis (Texas strain) contained GIT medium supplemented with 10% bovine serum, while the medium for B. bigemina (Argentina strain) and B. divergens (Germany strain) was Medium 199 and RPMI 1640 medium, respectively, supplemented with 40% bovine serum ([Rizk et al., 2016]). B. caballi (USDA strain) was grown using equine RBC in GIT medium supplemented with 10% equine serum. […]
(§2) The assays were conducted in accordance with the protocol described previously with modification ([Guswanto et al., 2014]). […] After incubation for 6 h, fluorescence values were measured using a fluorescence spectrophotometer (Fluoroskan Ascent, Thermo Fisher Scientific, USA) with the excitation and emission wavelength at 485 nm and 518 nm, respectively. The fluorescence data were subtracted from the negative control and used to calculate the IC50.
(§3) The IC50 of 17-DMAG, DA, and AV was calculated from the percentage of inhibition on the in vitro multiplication of all tested species using non-linear regression (curve fit), available in GraphPad Prism (GraphPad Software Inc., USA). […]

The next series has as its system B. bovis (Texas strain). The series is classed as cell-based, Babesia bovis. As to the method:
as §1, §2, §3

Another series has as its system B. caballi (USDA strain). In kind it is cell-based, Babesia caballi. As to the method: as §1, §2, §3
The test system of series [1] is B. bigemina (Argentina strain). In kind it is cell-based, Babesia bigemina. As for the experimental part: as §1, §2, §3
The subject of series [2] is B. divergens (Germany strain). In kind it is cell-based, Babesia divergens. As to the method:
as §1, §2, §3

As for `CC(=O)NCC(=O)O.CC(=O)NCC(=O)O.N=C(N)c1ccc(N=NNc2ccc(C(=N)N)cc2)cc1` [DA, diminazene aceturate], the “Selectivity index MDBK” value was over 668 with T. equi (USDA strain) (ratio IC50 MDBK to IC50 T. equi); over 211 in the series with B. bovis (Texas strain) (ratio IC50 MDBK to IC50 B. bovis); over 2985 in the series with B. caballi (USDA strain) (ratio IC50 MDBK to IC50 B. caballi); over 22 in series [1] (ratio IC50 MDBK to IC50 B. bigemina); over 106 in series [2] (ratio IC50 MDBK to IC50 B. divergens). In addition, the “Selectivity index NIH/3T3” value with T. equi (USDA strain) (ratio IC50 NIH/3T3 to IC50 T. equi) is reported as over 668; with B. bovis (Texas strain) (ratio IC50 NIH/3T3 to IC50 B. bovis), over 211; in the series with B. caballi (USDA strain) (ratio IC50 NIH/3T3 to IC50 B. caballi), over 2985; in series [1] (ratio IC50 NIH/3T3 to IC50 B. bigemina) it was over 22; in series [2] (ratio IC50 NIH/3T3 to IC50 B. divergens), over 106.
